Test results reported in article PMC12033364, “Emergence of transferable daptomycin resistance in Gram-positive bacteria” (npj Antimicrobials and Resistance, 2025).

Test system: S. aureus RN4220 cultures (drcAB-expressing and non-expressing)
Assay: Fate of DAP in culture supernatants, LC-MS/MS
Assay type: cell-based, Staphylococcus aureus
Conditions: 37 °C; for loss of the initial DAP concentration in supernatant: S. aureus RN4220_Pxyl/tet-drcAB, MH broth spiked with 16 μg/mL DAP, after 24 h, biological n = 2 with technical n = 5 each

SMILES: CCCCCCCCCC(=O)N[C@@H](Cc1c[nH]c2ccccc12)C(=O)N[C@H](CC(N)=O)C(=O)N[C@@H](CC(=O)O)C(=O)N[C@@H]1C(=O)NCC(=O)N[C@@H](CCCN)C(=O)N[C@@H](CC(=O)O)C(=O)N[C@H](C)C(=O)N[C@@H](CC(=O)O)C(=O)NCC(=O)N[C@H](CO)C(=O)N[C@@H]([C@H](C)CC(=O)O)C(=O)N[C@@H](CC(=O)c2ccccc2N)C(=O)O[C@@H]1C [DAP, Daptomycin]
- loss of the initial DAP concentration in supernatant (ATc-induced (100 ng/mL) drcAB expression, 200 rpm, P < 0.001): 83.33%
- loss of the initial DAP concentration in supernatant (drcAB not induced (no ATc), P = 0.03): 12.57%
- DAP concentration in supernatant over time (S. aureus RN4220 empty vector, MH broth spiked with 0.25 μg/mL DAP, 0 to 24 h): remained unaffected
